Test system: extracellular and intracellular fractions of E. coli O157:H7, S. carnosus and P. pentosaceus
Assay: Evaluation of extra- and intracellular enzymatic activity on sinalbin
Assay type: biochemical
Conditions: sinalbin 0.5 mg/ml, 6 days

SMILES: O=S(=O)(O)O/N=C(/Cc1ccc(O)cc1)S[C@@H]1O[C@H](CO)[C@@H](O)[C@H](O)[C@H]1O [sinalbin]
- sinalbin degradation by extracellular culture filtrates (culture supernatant): no extracellular myrosinase-like activity was found
- sinalbin degradation by intracellular bacterial fractions (sonicated cells): intracellular enzymatic activity capable of degrading sinalbin

— patent US20110045139A1, “FERMENTED SAUSAGE AND METHODS OF MAKING SAME” (priority 2009, published 2011)
